For assay [1], the target named is high affinity human FcγR3a 176Val allotype receptor (human, UniProt P08637 17-254). The assay can be described thus: cell-based or functional assay.
Assay [2] deals with SARS-CoV-2 spike protein (S-wt, Wuhan-Hu-1, NCBI Accession Number MN908947.3) on VSV-SARS-CoV-2-S … (SARS-CoV-2, UniProt P0DTC2 14-1273). The assay can be described thus: cell-based or functional assay.
The target in assay [3] is SARS-CoV-2 spike protein (SARS-CoV-2-S) on VSV pseudovirus (VSV-SARS-CoV-2-S) (SARS-CoV-2, UniProt P0DTC2 16-1211). In words: cell-based or functional assay.
Assay [4] addresses SARS-CoV-2 RBD extracellular domain expressed with a C-terminal myc-myc-hexahistidine tag (SARS-COV-2 RBD-MMH) (SARS-CoV-2). In words: SPR Biacore, mAb supernatant captured by anti-Fc, RBD-MMH injected, 25 C.
The target of assay [5] is T1, VLPs expressing VSV only (negative binding control) (vesicular stomatitis virus). In words: MSD electrochemiluminescence, control VLPs on plate, mAb […], expt 1.
For assay [6], the target named is T1, VLPs expressing VSV only (negative …). The assay can be described thus: MSD electrochemiluminescence, control VLPs on plate, mAb […], expt 2.

Consider 21 molecules from patent US20220356230A1 (published 2022).

B1: mAb10987 (antibody)
heavy: not shown
light: QSALTQPASVSGSPGQSITISCTGTSSDVGGYNYVSWYQQHPGKAPKLMIYDVSKRPSGVSNRFSGSKSGNTASLTISGLQSEDEADYYCNSLTSISTWVFGGGTKLTVLGQPKAAPSVTLFPPSSEELQANKATLVCLISDFYPGAVTVAWKADSSPVKAGVETTTPSKQSNNKYAASSYLSLTPEQWKSHRSYSCQVTHEGSTVEKTVAPTECS
In the case of B1, the “ADCC Mean RLU” value in assay [1] turned out to be 12000 RLU.

B2: mAb10989 (antibody)
heavy: not shown
light: QSALTQPASVSGSPGQSITISCTGTSSDVGTYNYVSWYQQHPGKAPKLMIFDVSNRPSGVSDRFSGSKSGNTASLTISGLQAEDEADYYCSSFTTSSTVVFGGGTKLTVLGQPKAAPSVTLFPPSSEELQANKATLVCLISDFYPGAVTVAWKADSSPVKAGVETTTPSKQSNNKYAASSYLSLTPEQWKSHRSYSCQVTHEGSTVEKTVAPTECS
On to B2, for which the “ADCC Mean RLU” value in assay [1] worked out at 10200 RLU.

B3: mAb10984 (antibody)
heavy: not shown
light: QSVLTQPPSVSAAPGQKVTISCSGSSSNIGNNYVSWYQQLPGTAPKLLIYDNNKRPSGIPDRFSGSKSGTSATLGITGLQTGDEADYYCGTWDSSLSAGVFGGGTKLTVLGQPKAAPSVTLFPPSSEELQANKATLVCLISDFYPGAVTVAWKADSSPVKAGVETTTPSKQSNNKYAASSYLSLTPEQWKSHRSYSCQVTHEGSTVEKTVAPTECS
For the molecule B3, the “ADCC Mean RLU” value in assay [1] was 6780 RLU.

B4: mAb10932 (antibody, V domains shown)
VH: EVQLVESGGGLVQSGGSLRLSCAASGLTVSSNYMSWVRQAPGKGLEWVSVIYSGGSTFYSDSVKGRFTISRHNSKNTLYLQMNSLRAEDTAVYYCARARGDAFDIWGQGTMVTVSS
VL: DIQMTQSPSSLSASVGDRVTITCQASQGISNYLNWYQQKPGKAPKLLISDASNLETGVPSRFSGSGSGTDFTFTISSLQPEDIATYYCQQYDNLRFFTFGPGTKVDIKR
Take B4: in assay [2], the “mAb neutralization potency (IC50 (M))” value was determined as 3.58e-10 M.

B5: mAb10932 (antibody, V domains shown)
VH: EVQLVESGGGLVQSGGSLRLSCAASGLTVSSNYMSWVRQAPGKGLEWVSVIYSGGSTFYSDSVKGRFTISRHNSKNTLYLQMNSLRAEDTAVYYCARARGDAFDIWGQGTMVTVSS
VL: DIQMTQSPSSLSASVGDRVTITCQASQGISNYLNWYQQKPGKAPKLLISDASNLETGVPSRFSGSGSGTDFTFTISSLQPEDIATYYCQQYDNLRFFTFGPGTKVDIKR
For B5, the “Neutralization (1:100 dilution)” value in assay [3] came to 68%.

B6: mAb10985 (antibody)
heavy: not shown
light: QSVLTQPPSVSGAPGQRVTISCTGSSSNIGAGYDVHWYQQLPGTAPKLLIYGNSNRPSGVPDRFSGSKSGTSASLAITGLQAEDEADYYCQSYDSSLSGSYVFGTGTKVTVLGQPKAAPSVTLFPPSSEELQANKATLVCLISDFYPGAVTVAWKADSSPVKAGVETTTPSKQSNNKYAASSYLSLTPEQWKSHRSYSCQVTHEGSTVEKTVAPTECS
For the molecule B6, in assay [1], the “ADCC Mean RLU” value is 5840 RLU.

B7: mAb10986 (antibody)
heavy: not shown
light: QSVLTQPPSVSGAPGQRVTISCTGSSSNIGTGYDVHWYQQLPGTAPKLLIYGNTNRPSGVPDRFSGSKSGTSASLAITGLQAEDEADYYCQSYDSSLSDSYVFGTGTKVTVLGQPKAAPSVTLFPPSSEELQANKATLVCLISDFYPGAVTVAWKADSSPVKAGVETTTPSKQSNNKYAASSYLSLTPEQWKSHRSYSCQVTHEGSTVEKTVAPTECS
Take B7: in assay [1], the “ADCC Mean RLU” value was 6200 RLU.

B8: mAb10922 (antibody, V domains shown)
VH: EVQLVESGGGLVQPGGSLRLSCAASGFTFSIYEMNWVRQAPGKGLEWVSYITSSGTTIYYADSVKGRFTISRDNAKNSLYLQMNSLRAEDTAVYYCASSSSSGYYFDYWGQGTLVTVSS
VL: not shown
Consider B8, for which, in assay [2], the “mAb neutralization potency (IC50 (M))” value was determined as 1.21e-10 M.

B9: mAb10922 (antibody, V domains shown)
VH: EVQLVESGGGLVQPGGSLRLSCAASGFTFSIYEMNWVRQAPGKGLEWVSYITSSGTTIYYADSVKGRFTISRDNAKNSLYLQMNSLRAEDTAVYYCASSSSSGYYFDYWGQGTLVTVSS
VL: not shown
Regarding B9, in assay [4], the koff (as a rule, the first-order rate constant of dissociation) was determined as 0.002 s⁻¹; the kon (commonly the rate constant with which the complex forms) came to 391000 M⁻¹ s⁻¹; the t½ (in general, how long it takes for the measured level to halve) worked out at 5.8 min.

B10: mAb10966 (antibody, V domains shown)
VH: EVQLVESGGGLVQPGGSLRLSCAASGLTVSSNYMSWVRQAPGKGLEWVSVIYSGGSTFYADSVKGRFTISRDNSKNTLYLQMNSLRPEDTAVYYCAREGRIAATGYGMDVWGQGTTVTVSS
VL: DIQMTQSPSSLSASVGDRVTITCQASQDISNYLNWYQQKPGKAPKLLIYDASNLGTGVPSRFSGSRSGTDFTFTISSLQPEDIATYYCHQYDNLPQTFGPGTKVDIKR
Turning to B10, the “Neutralization (1:100 dilution)” value in assay [3] was 76.2%.

B11: mAb10966 (antibody, V domains shown)
VH: EVQLVESGGGLVQPGGSLRLSCAASGLTVSSNYMSWVRQAPGKGLEWVSVIYSGGSTFYADSVKGRFTISRDNSKNTLYLQMNSLRPEDTAVYYCAREGRIAATGYGMDVWGQGTTVTVSS
VL: DIQMTQSPSSLSASVGDRVTITCQASQDISNYLNWYQQKPGKAPKLLIYDASNLGTGVPSRFSGSRSGTDFTFTISSLQPEDIATYYCHQYDNLPQTFGPGTKVDIKR
In the case of B11, the “t½” value in assay [4] was determined as 26.3 min.

B12: mAb10966 (antibody, V domains shown)
VH: EVQLVESGGGLVQPGGSLRLSCAASGLTVSSNYMSWVRQAPGKGLEWVSVIYSGGSTFYADSVKGRFTISRDNSKNTLYLQMNSLRPEDTAVYYCAREGRIAATGYGMDVWGQGTTVTVSS
VL: DIQMTQSPSSLSASVGDRVTITCQASQDISNYLNWYQQKPGKAPKLLIYDASNLGTGVPSRFSGSRSGTDFTFTISSLQPEDIATYYCHQYDNLPQTFGPGTKVDIKR
Regarding B12, the “mAb neutralization potency (IC50 (M))” value in assay [2] worked out at 1e-10 M.

B13: mAb10938 (antibody, V domains shown)
VH: EVQLVESGGGLVQPGGSLRLSCAVSGFTVSSNYMSWVRQAPGKGLEWVSLIYSGGSTFYADSVKGRFTISRHNSKNTLYLQMNSLRAEDTAVYYCAREGGYSYDYNYWGQGTLVTVSS
VL: DIQMTQSPSSLSASVGDRVTITCQASQDIRNYLNWYQQKPGKAPKLLIYDASNLETGVPSRFSGIGSGTDFTFTISSLQPEDIATYYCQQYDNLPITFGQGTRLEIKR
Take B13: the “t½” value in assay [4] is 33.2 min.

B14: mAb10913 (antibody, V domains shown)
VH: EVQLVESGGGLVQPGGSLRLSCAASGFTFRNYEMNWVRQAPGKGLEWVSYITSSGSTMYYADSVKGRFTISRDNAKNSLYLQMNSLRAEDTAVYYCARDGFYYYYAMDVWGQGTTVTVSS
VL: QSVLTQPPSVSAAPGQKVTISCSGSSSNIGNNYVSWYQQLPGTAPKLLIYDNNKRPSGIPDRFSGSKSGTSATLGITGLQTGDEADYYCGTWDSSLSVGRVFGTGTKVTVLG
Regarding B14, the “Antibody Binding Signal (RLU)” value in assay [5] was determined as 51 RLU.

B15: mAb10930 (antibody, V domains shown)
VH: EVQLVESGGGLVQPGRSLRLSCAASGFTFDDYAMYWVRQAPGKGLEWVSGISWNSGSIGYADSVKGRFTISRDNAKNSLYLQMNSLRAADTALYYCAKDKDWNSRGYYYYGMDVWGQGTTVTVSS
VL: not shown
B15: the “mAb neutralization potency (IC50 (M))” value in assay [2] turned out to be 1.07e-09 M.

B16: mAb10930 (antibody, V domains shown)
VH: EVQLVESGGGLVQPGRSLRLSCAASGFTFDDYAMYWVRQAPGKGLEWVSGISWNSGSIGYADSVKGRFTISRDNAKNSLYLQMNSLRAADTALYYCAKDKDWNSRGYYYYGMDVWGQGTTVTVSS
VL: not shown
Consider B16, for which the “t½” value in assay [4] was found to be 6.2 min.

B17: mAb10954 (antibody, V domains shown)
VH: EVQLVESGGGLVQPGGSLRLSCAASGITVSSNYMSWVRQAPGKGLEWVSLIYSGGSTYYADSVKGRFTISRDNSKNTLYLQMNSLRVEDTAVYYCARDHGMAAAGYNYWGQGTLVTVSS
VL: DIQMTQSPSSLSASVGDRVTITCQASQDINKYLNWYQQKPGKAPKLLIYDASNLETGVPSRFSGSGSGTDFTFTINSLQPEDFATYFCQQYDNLPPAFGQGTKVEIKR
Take B17: in assay [6], the “Antibody Binding Signal (RLU)” value is 48 RLU.

B18: mAb10971 (antibody, V domains shown)
VH: EVQLVESGGGLIQPGGSLRLSCAASGVTVSSNYMSWVRQAPGKGLEWVSVIYSGGSTFYSDSVKGRFSISRDNSKNTLYLQMNSLRAEDTAVYYCARDLYYYGMDVWGQGTTVTVSS
VL: DIQLTQSPSFLSASVGDRVTITCRASQGISTYLAWYQQKPGKAPKLLIYAASTLQSGVPSRFSGSGSGTEFTLTISSLQPEDFATYYCQQLDSYPGLTFGGGTKVEIKR
As to B18, in assay [3], the “Neutralization (1:100 dilution)” value is 73.9%.

B19: mAb10956 (antibody, V domains shown)
VH: EVQLVESGGGLVQPGGSLRLSCAASGLTVSSNYMSWVRQAPGKGLEWVSVIYSGGSTFYADSVKGRFTISRDNSKNTLYLQMNSLRAEDTAVYYCARDLIKYGMDVWGQGTTVTVSS
VL: DIQMTQSPSSLSASVGDRVTITCQASQDISNYLNWYQQKPGKAPKLLIYDASNLETGVPSRFSGSGSGTDFTFTISSLQPEDIATYYCQQYDNLPPHFGPGTKVDIKR
As to B19, in assay [3], the “Neutralization (1:20 dilution)” value is 84.1% and the “Neutralization (1:100 dilution)” value was found to be 61.6%.

B20: mAb10956 (antibody, V domains shown)
VH: EVQLVESGGGLVQPGGSLRLSCAASGLTVSSNYMSWVRQAPGKGLEWVSVIYSGGSTFYADSVKGRFTISRDNSKNTLYLQMNSLRAEDTAVYYCARDLIKYGMDVWGQGTTVTVSS
VL: DIQMTQSPSSLSASVGDRVTITCQASQDISNYLNWYQQKPGKAPKLLIYDASNLETGVPSRFSGSGSGTDFTFTISSLQPEDIATYYCQQYDNLPPHFGPGTKVDIKR
On to B20, for which the “mAb neutralization potency (IC50 (M))” value in assay [2] was 1.28e-10 M.

B21: mAb10971 (antibody, V domains shown)
VH: EVQLVESGGGLIQPGGSLRLSCAASGVTVSSNYMSWVRQAPGKGLEWVSVIYSGGSTFYSDSVKGRFSISRDNSKNTLYLQMNSLRAEDTAVYYCARDLYYYGMDVWGQGTTVTVSS
VL: DIQLTQSPSFLSASVGDRVTITCRASQGISTYLAWYQQKPGKAPKLLIYAASTLQSGVPSRFSGSGSGTEFTLTISSLQPEDFATYYCQQLDSYPGLTFGGGTKVEIKR
In the case of B21, the “mAb neutralization potency (IC50 (M))” value in assay [2] turned out to be 1.55e-10 M.
